PubChem BioAssay AID504761, Drosophila RNAi Screening Center, 2011
Assay: 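Insect host genes that dengue virus relies on to spread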 (primary screen). Cell system: D.Mel-2 cells from Drosophila. Reagent: long dsRNA against Drosophila genes. Challenge: infection with dengue virus type 2; dose and infection time not stated. Detection: 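Per well on two replicate plates, imaging gave the percent of cells positive for viral envelope protein, ranked by infection, and a nuclear count of cells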. Direction: infection score: higher = more virus-infected cells; cell count: higher = more cells in the well. Rule for the call: 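Low infection ranks in the two replicates (chance level up to 0.065) followed by a retest with a 1.5-fold or larger significant decrease, p below 0.05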. Calls: active = confirmed: knock-down lowers infection; inactive = not picked or not confirmed.
The screen tested about 22,000 reagents; shown is a random part of those that have a named target and a result. Of all reagents, 116 (0.52%) are marked active. 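Calls depend on retest data that are not deposited; infection was ranked per plate without normalising between plates; the unit of the infection score is not given.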 Raw values vary from plate to plate and are shown uncorrected. Entries without a mark were called inactive. A plus sign joins genes that one reagent is predicted to hit. Not given: the amount of reagent, the time to read-out.

no.	Gene	dsRNA	infection score, replicate 1	infection score, replicate 2	cell count, replicate 1	cell count, replicate 2
1	Ilp6	DRSC17906	0.99	19.7	706	6641
2	Or46a	DRSC07489	30.1	17.4	5993	5596
3	Or46a	DRSC07490	6.57	12.1	6345	6019
4	Or46a	DRSC21590	25.6	15.9	5952	6457
5	Or46a	DRSC29654	23.4	27	5086	3898
6	hpRNA:CR18854	DRSC02702	26.1	20.8	5537	5461
7	hpRNA:CR18854	DRSC29809	4.15	6.97	6429	6309
8	CG4291	DRSC00650	3.84	3.84	6534	6608
9	CG4291	DRSC28410		6.26	358	975
10	VhaSFD	DRSC03471	9.3	1.69	5171	5387
11	CG14354	DRSC14817	0.48	4.42	6941	1990
12	ZIPIC	DRSC16349	5.65	5.63	6146	6409
13	Jhedup	DRSC07173	2.08	12.9	6777	6385
14	MICU3	DRSC13381	3.54	7.79	5783	4916
15	MICU3	DRSC15613	4.17	5.31	6761	6530
16	hang	DRSC23216	0.83	0.65	6852	6307
17	hang	DRSC29322		2.45	292	1346
18	Src64B	DRSC08700	1.81	1.98	6202	6011

Just “infection score, replicate 1” (3 entries from above):
Or46a [DRSC29654]	23.4
hpRNA:CR18854 [DRSC02702]	26.1
hpRNA:CR18854 [DRSC29809]	4.15

The list goes on:
no.	Gene	dsRNA	infection score, replicate 1	infection score, replicate 2	cell count, replicate 1	cell count, replicate 2
19	Actn	DRSC17724	5.35	21.5	6561	2796
20	Actn	DRSC25653	4.64	3.87	6039	5838
21	CG8664	DRSC20116	2.33	4.65	6696	6930
22	CG43693	DRSC09086	8.03	3.74	4742	5291
23	CG43693	DRSC10625	12.9	16	6238	5800
24	Ugt35B1	DRSC16893	13.7	12.8	6551	6567
25	Ugt35B1	DRSC27518	8.06	5.64	6747	6634
26	CG7271 + term	DRSC30034	12.5	3.06	2628	6445
27	CG13404	DRSC19536	7.31	5.09	5771	5976
28	Cfp1 + CG17440	DRSC29926	31.2	13	3305	6900
29	Bfc	DRSC08623	11.1	0.92	5598	6173
30	coil	DRSC07242	2.24	16.1	5973	6265
31	coil	DRSC26055	4.57	7.57	6606	6802
32	CG33346	DRSC22898	1.07	9.51	5876	5613
33	SP1029	DRSC16848	4.53	3.74	6740	6050
34	SP1029	DRSC25584	1.05	1.16	6504	6538
35	Syx18	DRSC14628	30	6.11	5313	6380
36	CG17746	DRSC08521	4.14	8.71	6683	5855
37	CG17746	DRSC23333	1.13	5.43	6931	6649
38	Glg1	DRSC11815	1.79	14.7	6662	6695
39	Glg1	DRSC11816	10.8	12.5	5620	5060
40	Glg1	DRSC11817	4.62	9.27	5672	4216
